Source: PubChem BioAssay AID1224833 (University of Georgia, 2016)

- Purpose: 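Host factors restraining rotavirus as candidate antiviral genes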 (primary screen)
- Cells: monkey MA104 kidney cells
- Reagents: siRNA pool against human genes, 50 nM
- Timing: 48 h knock-down before infection; read 24 h after infection
- Challenge: infection with rotavirus strain RV3 two days after transfection; infectious dose for this stage not given
- Read-out: 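Rotavirus antigen per well by fluorescent immunoassay, normalised to non-targeting control wells on each plate and given as a standard z-score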
- Scale: z-score vs non-targeting control: higher = more rotavirus replication than with non-targeting control
- Call rule: In these data the active calls have z-score vs non-targeting control at about -1 or lower, or at about 1 or higher
- Calls: active = z-score beyond 1 either way; inactive = z-score within 1 of zero
In all, the deposit lists about 12,000 reagents; this is a random part of them. About 5,600 of them (46%) were called active. 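Active calls cover z-scores past 1 in both directions, so they include lowered as well as raised rotavirus replication.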 Unmarked entries are inactive.

no.	gene	z-score vs non-targeting control
1	WDR64 (WD repeat domain 64)	-0.852
2	ZNF500 (zinc finger protein 500)	0.954
3	ARMC2 (armadillo repeat containing 2)	0.903
4	CDX2 (caudal type homeobox 2)	1.79 (active)
5	WSCD2 (WSC domain sialate O sulfotransferase 2)	-2.01 (active)
6	ADAM32 (ADAM metallopeptidase domain 32)	-1.61 (active)
7	VDR (vitamin D receptor)	-2.92 (active)
8	H2AZ1 (H2A.Z variant histone 1)	1.41 (active)
9	TBC1D20 (TBC1 domain family member 20)	-0.197
10	OR4L1 (olfactory receptor family 4 subfamily L member 1)	-1.42 (active)
11	HADHB	-1.2 (active)
12	NXPH1 (neurexophilin 1)	0.131
13	PIGA (phosphatidylinositol glycan anchor biosynthesis class A)	-0.944
14	TAMALIN (trafficking regulator and scaffold protein tamalin)	-0.307
15	H2AC1 (H2A clustered histone 1)	-0.773
16	SLC1A7	-0.783
17	ICMT (isoprenylcysteine carboxyl methyltransferase)	-1.54 (active)
18	KLK14 (kallikrein related peptidase 14)	1.07 (active)
19	TMOD3 (tropomodulin 3)	-0.239
20	ABCB5 (ATP binding cassette subfamily B member 5)	-0.623
21	CREB3 (cAMP responsive element binding protein 3)	2.24 (active)
22	RUFY3 (RUN and FYVE domain containing 3)	0.752
23	CD320 (CD320 molecule)	-0.308
24	ISG20L2 (interferon stimulated exonuclease gene 20 like 2)	-1.55 (active)
25	S100A8 (S100 calcium binding protein A8)	-1.14 (active)
26	ACBD4 (acyl-CoA binding domain containing 4)	-2.44 (active)
27	FRMPD4 (FERM and PDZ domain containing 4)	-0.801
28	TMEM33 (transmembrane protein 33)	-0.524
29	FCMR (Fc mu receptor)	-1.27 (active)
30	TAF12 (TATA-box binding protein associated factor 12)	0.512
31	LSM1 (LSM1 homolog, mRNA degradation associated)	-0.665
32	LAIR2 (leukocyte associated immunoglobulin like receptor 2)	-1.2 (active)
33	BEND7 (BEN domain containing 7)	-1.5 (active)
34	ORC2 (origin recognition complex subunit 2)	-0.806
35	HOXB13 (homeobox B13)	-0.748
36	TSLIG2 (tRNA splicing ligase complex subunit 2)	-0.808
37	C7orf33 (chromosome 7 open reading frame 33)	0.78
38	OR4E2 (olfactory receptor family 4 subfamily E member 2)	-1.25 (active)
39	CCDC28A (coiled-coil domain containing 28A)	-1.25 (active)
40	MIR1-1HG (MIR1-1 host gene)	-2.27 (active)
41	ZBTB6 (zinc finger and BTB domain containing 6)	0.0671
42	EP300 (EP300 lysine acetyltransferase)	-3.18 (active)
43	CA10 (carbonic anhydrase 10 (inactive))	-1.05 (active)
44	STOML3 (stomatin like 3)	0.0568
45	MPZL2 (myelin protein zero like 2)	0.984
46	KRT34 (keratin 34)	1.51 (active)
47	DRC1 (dynein regulatory complex subunit 1)	-1.65 (active)
48	EPCIP (exosomal polycystin 1 interacting protein)	-0.55
49	TRIM16L (tripartite motif containing 16 like (pseudogene))	1.16 (active)
50	MBD3L2 (methyl-CpG binding domain protein 3 like 2)	-0.483
51	SRSF4 (serine and arginine rich splicing factor 4)	-0.284
52	ZNF652 (zinc finger protein 652)	-0.669
53	HAVCR2 (hepatitis A virus cellular receptor 2)	0.739
54	NEU4 (neuraminidase 4)	-1.69 (active)
55	GPR146 (G protein-coupled receptor 146)	0.984
56	TP53BP1 (tumor protein p53 binding protein 1)	0.754
57	YWHAQ	-1.28 (active)
58	THOP1 (thimet oligopeptidase 1)	1.21 (active)
59	SPATA2L (spermatogenesis associated 2 like)	-0.764
60	SLC45A4	0.495
61	PLAG1 (PLAG1 zinc finger)	-1.73 (active)
62	DGCR6L (DiGeorge syndrome critical region gene 6 like)	-1.31 (active)
63	DNAH5 (dynein axonemal heavy chain 5)	1.85 (active)
64	KHDRBS3	-0.211
65	CCM2L (CCM2 like scaffold protein)	-0.527
66	PHLDA2 (pleckstrin homology like domain family A member 2)	0.404
67	CXCR2 (C-X-C motif chemokine receptor 2)	0.848
68	FOXP4 (forkhead box P4)	-1.55 (active)
69	COL25A1 (collagen type XXV alpha 1 chain)	1.51 (active)
70	ST14 (ST14 transmembrane serine protease matriptase)	-1.02 (active)
71	KIAA0930	-0.987
72	TDRD12 (tudor domain containing 12)	-0.722
73	BSN (bassoon presynaptic cytomatrix protein)	1.35 (active)
74	RGS18 (regulator of G protein signaling 18)	-0.0618
75	SACK1H (scaffolding CK1 anchoring protein H)	-0.471
76	CDON (cell adhesion associated, oncogene regulated)	-1.75 (active)
77	SEPTIN9 (septin 9)	0.659
78	ATG9A (autophagy related 9A)	0.409
79	GTF2IRD2B (GTF2I repeat domain containing 2B)	-1.64 (active)
80	SLC4A1AP	-1.72 (active)
81	DBH (dopamine beta-hydroxylase)	-1.52 (active)
82	THOC6 (THO complex subunit 6)	0.87
83	PRB3 (proline rich protein BstNI subfamily 3)	0.774
84	COX8C (cytochrome c oxidase subunit 8C)	-1.07 (active)
85	PYCR2 (pyrroline-5-carboxylate reductase 2)	-1.91 (active)
86	ATP5PF (ATP synthase peripheral stalk subunit F6)	-0.931
87	PAX6 (paired box 6)	-0.898
88	KLHL41 (kelch like family member 41)	-1.37 (active)
89	CELA1 (chymotrypsin like elastase 1)	0.86
90	TNFSF13B (TNF superfamily member 13b)	-0.534
91	MKLN1 (muskelin 1)	-1.01 (active)
92	BCL7B (BAF chromatin remodeling complex subunit BCL7B)	1.22 (active)
93	PTCH1 (patched 1)	-1.1 (active)
94	PRB1 (proline rich protein BstNI subfamily 1)	-0.689
95	WNT9B (Wnt family member 9B)	-0.91
96	MYL12A (myosin light chain 12A)	0.727
97	MORF4L2 (mortality factor 4 like 2)	-0.423
98	MRPL12 (mitochondrial ribosomal protein L12)	-0.959
99	SP2 (Sp2 transcription factor)	-3.24 (active)
100	PIBF1 (progesterone immunomodulatory binding factor 1)	-0.879
101	ZBTB48 (zinc finger and BTB domain containing 48)	1.14 (active)
102	TARBP2 (TARBP2 subunit of RISC loading complex)	-0.638
103	POLR3B (RNA polymerase III subunit B)	-0.805
104	ZNF30 (zinc finger protein 30)	-1.64 (active)
105	MUC13 (mucin 13, cell surface associated)	0.439
106	LRRC39 (leucine rich repeat containing 39)	0.198
107	KRT23 (keratin 23)	-2.36 (active)
108	ALG3 (ALG3 alpha-1,3- mannosyltransferase)	-1.62 (active)
109	PCP2 (Purkinje cell protein 2)	0.0839
110	SCAMP4	0.143

Reformatted: results already given.
gene	z-score vs non-targeting control
HAVCR2 (hepatitis A virus cellular receptor 2)	0.739
NEU4 (neuraminidase 4)	-1.69 (active)
GPR146 (G protein-coupled receptor 146)	0.984
TP53BP1 (tumor protein p53 binding protein 1)	0.754
YWHAQ	-1.28 (active)
THOP1 (thimet oligopeptidase 1)	1.21 (active)
